Measurements published in paper PMC9855884, “Glycosylated Lipopeptides—Synthesis and Evaluation of Antimicrobial Activity and Cytotoxicity” (Biomolecules, 2023).

Test system: human red blood cells (RBCs)
Assay: Hemolysis assay
Assay type: cell-based
Description: The hemolysis assay was conducted using a procedure described previously. For this purpose, fresh human red blood cells (RBCs) with EDTA anticoagulant were washed three times with phosphate-buffer saline (PBS) using centrifugation at 800× g for 10 min and resuspended in PBS. Then, the stock solution of RBCs was added to serial dilution of peptides on 96-well polystyrene plates to reach a final volume of 100 µL with 4% concentration of erythrocytes (v/v) over the concentration range of 1–512 µg/mL of the tested compounds. The control wells for the 0% and 100% hemolysis consisted of RBCs suspended in PBS and 1% of Triton X–100, respectively. Subsequently, the plates were incubated for 60 min at 37 °C and then centrifuged at 800× g for 10 min at 4 °C (Sorvall ST 16R Centrifuge, Thermo Scientific, Osterode am Harz, Germany). After centrifugation, the supernatant was carefully […] to new microtiter plates and the release of hemoglobin was monitored through absorbance measurements at 540 nm (Multiskan™ GO Microplate Spectrophotometer, Thermo Scientific). All experiments were conducted in triplicate.
The lipopeptides were tested against human erythrocytes in order to evaluate their hemolytic activity. Moreover, selectivity indexes (SI) were calculated by dividing the HC50 by MIC. […] In some cases, glycosylation led to suppressed toxicity, e.g., a comparison of C14 peptides analogs: 1–3 and 10–12. On the other hand, an increase in toxicity of C18 analogs (7–9 vs. 16–18) was found for glycosylated USCLs. For this reason, SI was calculated to provide a correlation between antimicrobial activity and toxicity. […] Among gUSCLs: 10 and 11 with C14 fatty acid and 16–18 should be highlighted owing to their high selectivity against E. fecium and C. glabrata.

SMILES | Selectivity Index (SI), HC50/MIC (A. baumannii) | Selectivity Index (SI), HC50/MIC (C. glabrata) | Selectivity Index (SI), HC50/MIC (E. faecium) | Selectivity Index (SI), HC50/MIC (K. aerogenes) | Selectivity Index (SI), HC50/MIC (K. pneumoniae) | Selectivity Index (SI), HC50/MIC (P. aeruginosa) | Selectivity Index (SI), HC50/MIC (S. aureus)
CCCCCCCCCCCCCCCC(=O)N[C@@H](CO[C@@H]1O[C@H](CO)[C@@H](O)[C@H](O)[C@H]1NC(C)=O)C(=O)N[C@@H](CCCNC(=N)N)C(=O)N[C@@H](CCCNC(=N)N)C(N)=O [Peptide 13, C16-S(GlcNAc)RR-NH2] (Palmitoyl-Ser(βGlcNAc)-Arg-Arg-NH2) | 2.98 | 2.98 | 5.96 | 0.19 | 0.37 | 2.98 | 5.96
CCCCCCCCCCCCCC(=O)N[C@@H](CCCNC(=N)N)C(=O)N[C@@H](CO[C@@H]1O[C@H](CO)[C@@H](O)[C@H](O)[C@H]1NC(C)=O)C(=O)N[C@@H](CCCNC(=N)N)C(N)=O [Peptide 11, C14-RS(GlcNAc)R-NH2] (Myristoyl-Arg-Ser(βGlcNAc)-Arg-NH2) | 5.69 | 2.85 | 11.38 | – | – | 2.85 | 5.69
CCCCCCCCCCCCCCCC(=O)N[C@@H](CO)C(=O)N[C@@H](CCCNC(=N)N)C(=O)N[C@@H](CCCNC(=N)N)C(N)=O [Peptide 4, C16-SRR-NH2] (Palmitoyl-Ser-Arg-Arg-NH2) | 2.36 | 18.87 | 9.43 | 4.72 | 0.15 | 4.72 | 9.43
CCCCCCCCCCCCCC(=O)N[C@@H](CCCNC(=N)N)C(=O)N[C@@H](CCCNC(=N)N)C(=O)N[C@@H](CO[C@@H]1O[C@H](CO)[C@@H](O)[C@H](O)[C@H]1NC(C)=O)C(N)=O [Peptide 12, C14-RRS(GlcNAc)-NH2] (Myristoyl-Arg-Arg-Ser(βGlcNAc)-NH2) | 5.40 | 2.70 | 21.61 | – | – | 1.35 | 10.80
CCCCCCCCCCCCCC(=O)N[C@@H](CO[C@@H]1O[C@H](CO)[C@@H](O)[C@H](O)[C@H]1NC(C)=O)C(=O)N[C@@H](CCCNC(=N)N)C(=O)N[C@@H](CCCNC(=N)N)C(N)=O [Peptide 10, C14-S(GlcNAc)RR-NH2] (Myristoyl-Ser(βGlcNAc)-Arg-Arg-NH2) | – | >2.00 | >16.00 | – | – | >2.00 | >8.00
CCCCCCCCCCCCCC(=O)N[C@@H](CCCNC(=N)N)C(=O)N[C@@H](CO)C(=O)N[C@@H](CCCNC(=N)N)C(N)=O [Peptide 2, C14-RSR-NH2] (Myristoyl-Arg-Ser-Arg-NH2) | 2.92 | 5.83 | 23.33 | 0.36 | 0.36 | 2.92 | 23.33
CCCCCCCCCCCCCCCCCC(=O)N[C@@H](CCCNC(=N)N)C(=O)N[C@@H](CCCNC(=N)N)C(=O)N[C@@H](CO[C@@H]1O[C@H](CO)[C@@H](O)[C@H](O)[C@H]1NC(C)=O)C(N)=O [Peptide 18, C18-RRS(GlcNAc)-NH2] (Stearoyl-Arg-Arg-Ser(βGlcNAc)-NH2) | 1.50 | 12.01 | 6.01 | 1.50 | 1.50 | 1.50 | 3.00
CCCCCCCCCCCCCCCCCC(=O)N[C@@H](CCCNC(=N)N)C(=O)N[C@@H](CO)C(=O)N[C@@H](CCCNC(=N)N)C(N)=O [Peptide 8, C18-RSR-NH2] (Stearoyl-Arg-Ser-Arg-NH2) | 5.24 | 83.78 | 41.89 | 10.47 | 10.47 | 5.24 | 20.95
CCCCCCCCCCCCCCCCCC(=O)N[C@@H](CO)C(=O)N[C@@H](CCCNC(=N)N)C(=O)N[C@@H](CCCNC(=N)N)C(N)=O [Peptide 7, C18-SRR-NH2] (Stearoyl-Ser-Arg-Arg-NH2) | 2.57 | 20.58 | 10.29 | 5.14 | 5.14 | 1.29 | 5.14
CCCCCCCCCCCCCCCCCC(=O)N[C@@H](CO[C@@H]1O[C@H](CO)[C@@H](O)[C@H](O)[C@H]1NC(C)=O)C(=O)N[C@@H](CCCNC(=N)N)C(=O)N[C@@H](CCCNC(=N)N)C(N)=O [Peptide 16, C18-S(GlcNAc)RR-NH2] (Stearoyl-Ser(βGlcNAc)-Arg-Arg-NH2) | 4.84 | 19.36 | 4.84 | 2.42 | 1.21 | 2.42 | 4.84
CCCCCCCCCCCCCC(=O)N[C@@H](CCCNC(=N)N)C(=O)N[C@@H](CCCNC(=N)N)C(=O)N[C@@H](CO)C(N)=O [Peptide 3, C14-RRS-NH2] (Myristoyl-Arg-Arg-Ser-NH2) | 3.55 | 7.09 | 28.38 | 0.44 | 0.44 | 3.55 | 14.19
CCCCCCCCCCCCCCCCCC(=O)N[C@@H](CCCNC(=N)N)C(=O)N[C@@H](CO[C@@H]1O[C@H](CO)[C@@H](O)[C@H](O)[C@H]1NC(C)=O)C(=O)N[C@@H](CCCNC(=N)N)C(N)=O [Peptide 17, C18-RS(GlcNAc)R-NH2] (Stearoyl-Arg-Ser(βGlcNAc)-Arg-NH2) | 2.83 | 11.31 | 5.66 | 1.41 | 2.83 | 1.41 | 2.83
CCCCCCCCCCCCCCCC(=O)N[C@@H](CCCNC(=N)N)C(=O)N[C@@H](CO[C@@H]1O[C@H](CO)[C@@H](O)[C@H](O)[C@H]1NC(C)=O)C(=O)N[C@@H](CCCNC(=N)N)C(N)=O [Peptide 14, C16-RS(GlcNAc)R-NH2] (Palmitoyl-Arg-Ser(βGlcNAc)-Arg-NH2) | 2.29 | 4.58 | 4.58 | 1.15 | 0.57 | 2.29 | 4.58
CCCCCCCCCCCCCCCCCC(=O)N[C@@H](CCCNC(=N)N)C(=O)N[C@@H](CCCNC(=N)N)C(=O)N[C@@H](CO)C(N)=O [Peptide 9, C18-RRS-NH2] (Stearoyl-Arg-Arg-Ser-NH2) | 2.95 | 23.58 | 11.79 | 2.95 | 5.89 | 1.47 | 11.79
CCCCCCCCCCCCCCCC(=O)N[C@@H](CCCNC(=N)N)C(=O)N[C@@H](CCCNC(=N)N)C(=O)N[C@@H](CO)C(N)=O [Peptide 6, C16-RRS-NH2] (Palmitoyl-Arg-Arg-Ser-NH2) | 2.37 | 9.49 | 9.49 | 1.19 | 2.37 | 4.75 | 9.49
CCCCCCCCCCCCCCCC(=O)N[C@@H](CCCNC(=N)N)C(=O)N[C@@H](CCCNC(=N)N)C(=O)N[C@@H](CO[C@@H]1O[C@H](CO)[C@@H](O)[C@H](O)[C@H]1NC(C)=O)C(N)=O [Peptide 15, C16-RRS(GlcNAc)-NH2] (Palmitoyl-Arg-Arg-Ser(βGlcNAc)-NH2) | 3.48 | 6.97 | 13.93 | 0.44 | 0.44 | 1.74 | 6.97
CCCCCCCCCCCCCCCC(=O)N[C@@H](CCCNC(=N)N)C(=O)N[C@@H](CO)C(=O)N[C@@H](CCCNC(=N)N)C(N)=O [Peptide 5, C16-RSR-NH2] (Palmitoyl-Arg-Ser-Arg-NH2) | 2.57 | 10.28 | 10.28 | 2.57 | 1.28 | 1.28 | 10.28

Where a SMILES comes first, the peptide text is derived from it. The star is where a group is joined. βGlcNAc = CC(=O)N[C@@H]1[C@@H](O)[C@H](O)[C@@H](CO)O[C@H]1*; Stearoyl = CCCCCCCCCCCCCCCCCC(=O)*; Palmitoyl = CCCCCCCCCCCCCCCC(=O)*; Myristoyl = CCCCCCCCCCCCCC(=O)*
